Results of unrelated studies side by side (data: NIAID ChemDB).

Common to all: cytotoxicity tests; cells: MT-4; endpoint: CC50

CCn: concentration that lowers growth or viability of the cells by n%. Rows are shuffled and stem from different studies.

{"SMILES": "Cc1cn([C@H]2C[C@H](F)[C@@H](CO)O2)c(=O)[nH]c1=O", "value": "240 µM"}
{"SMILES": "CC(C)[C@H]1CC[C@]2(C(=O)O)CC3=C(C[C@@H]12)[C@]1(C)[C@@H]2CC[C@@H](C)C21CC[C@H]3C", "method": "ATP / luminescence", "value": "6.6 µM"}
{"SMILES": "COc1c(CC=C(C)C)c(O)cc2oc(=O)c3c4ccc(O)cc4oc3c12", "value": "14 µg/mL"}
{"SMILES": "Fc1ccc2c(c1)nc1n2C(c2c(F)cccc2Cl)SC1", "value": "34.7 µM"}
{"SMILES": "Cc1ccc(CN2C(=O)CSC2c2c(F)cccc2F)o1", "value": "125 µM"}
{"SMILES": "CCc1nc2ccccn2c1C(=O)c1ccco1", "method": "MTT", "value": "280 µM"}
{"SMILES": "COc1ccc(Cn2cc(CSc3nc(Cc4c(Cl)cccc4Cl)c(C)c(=O)[nH]3)nn2)cc1", "method": "MTT", "value": "28.98 µM"}
{"SMILES": "COc1c(/C=C/C(=O)c2ccc(O)cc2)ccc(O)c1O", "value": "16 µg/mL"}
{"SMILES": "CCc1nc2ccccn2c1C(=O)c1ccccc1", "method": "MTT", "value": "180 µM"}
{"SMILES": "CC(C)Nc1cccnc1N1CCN(C(=O)c2cc3cc(NS(C)(=O)=O)ccc3[nH]2)CC1", "method": "MTT", "value": ">25 µM"}
{"SMILES": "O=C1CSC(c2ccnc3ccccc23)N1c1ccccn1", "value": "33.93 µM"}
{"SMILES": "Cc1ccnc2c1NC(=O)c1cccnc1N2C1CC1", "method": "MTT", "value": ">15.02 µM"}
{"SMILES": "O=C(c1ccccc1)c1ccc2nc3n(c2c1)C(c1c(F)cccc1F)SC3", "value": "1.3 µM"}
{"SMILES": "C1CNCCNCCCN[C@H]([C@H]2CNCCCNCCNCCCN2)CNC1", "value": "299 µg/mL"}
{"SMILES": "NC(=O)c1ccc(Cn2cc(CSc3nc(Cc4cccc5ccccc45)cc(=O)[nH]3)nn2)cc1", "method": "MTT", "value": "105 µM"}
{"SMILES": "COc1ccc2c(c1)nc1n2C(c2c(F)cccc2F)SC1", "value": "7.8 µM"}
{"SMILES": "CCc1c(CC23CC4CC(CC(C4)C2)C3)nc(SCC(=O)Nc2ccc(C)cc2[N+](=O)[O-])[nH]c1=O", "method": "MTT / absorbance", "value": "23.16 µM"}
{"SMILES": "CCc1nc2ncccn2c1C(=O)c1ccccc1", "method": "MTT", "value": "620 µM"}
{"SMILES": "COc1ccc(C(=O)CSc2nc(CC34CC5CC(CC(C5)C3)C4)c(C)c(=O)[nH]2)cc1", "method": "MTT / absorbance", "value": ">285 µM"}
{"SMILES": "O=C1CSC(c2c(F)cccc2Cl)N1Cc1ccco1", "value": "97.7 µM"}
{"SMILES": "CCc1c(Cc2c(Cl)cccc2Cl)nc(SC/C=C/c2ccc(C#N)cc2)[nH]c1=O", "value": ">54.82 µM"}
{"SMILES": "O=C1CSC(c2cccnc2)N1Cc1ccco1", "value": "339 µM"}
{"SMILES": "CC(C)Nc1cccnc1N1CCN(C(=O)c2ccc(-c3ccccc3)[nH]2)CC1", "value": "26 µM"}
{"SMILES": "CC(C)=CCc1c(O)c(CC=C(C)C)c2occ(-c3ccc(O)cc3)c(=O)c2c1O", "value": "11 µg/mL"}
{"SMILES": "CCc1s/c(=N\\S(=O)(=O)c2cccc([N+](=O)[O-])c2)n(C)c1C", "method": "MTT", "value": ">25 µM"}
{"SMILES": "Nc1ncc2ncn(CCOCP(=O)(O)O)c2n1", "value": ">1250 µM"}
{"SMILES": "NC(=O)c1ccc(Cn2cc(CSc3nc(Cc4c(Cl)cccc4Cl)c(I)c(=O)[nH]3)nn2)cc1", "method": "MTT", "value": "94.13 µM"}
{"SMILES": "CCc1nc2sccn2c1C(=O)c1ccco1", "value": "358 µM"}
{"SMILES": "Cc1nc(N2C(=O)CSC2c2c(F)cccc2F)ccc1Br", "value": "32.79 µM"}
{"SMILES": "Nc1nc2c(ncn2CCOCP(=O)(O)O)c(=O)[nH]1", "value": "11 µM"}
{"SMILES": "CC(C)Nc1cccnc1N1CCN(C(=O)c2c[nH]c(-c3ccc(NS(C)(=O)=O)cc3)c2)CC1", "value": "24 µM"}
{"SMILES": "Cc1cc(C#N)cc(C)c1Oc1nc(Nc2ccc(C#N)cc2)nc(N)c1Br", "method": "MTT / absorbance", "value": "2.46 µM"}
{"SMILES": "CC(C)Nc1cccnc1N1CCN(C(=O)c2ccc(-c3ccccc3N)[nH]2)CC1", "value": "72 µM"}
{"SMILES": "Cc1c(CC23CC4CC(CC(C4)C2)C3)nc(SCC(=O)Nc2ccc(C(N)=O)cc2)[nH]c1=O", "method": "MTT / absorbance", "value": "29.15 µM"}
{"SMILES": "C1CNCCNCC(C2CNCCNCCCNCCNC2)CNCCNC1", "value": "58 µg/mL"}
{"SMILES": "CCn1c(C)c(C(C)(C)C)s/c1=N\\S(=O)(=O)c1cccc([N+](=O)[O-])c1", "method": "MTT", "value": "11.5 µM"}
{"SMILES": "C#C[C@@]1(CO)C=C[C@H](n2cc(C)c(=O)[nH]c2=O)O1", "value": ">100 µM"}
{"SMILES": "Fc1ccc2c(c1)nc1n2C(c2c(F)cccc2F)SC1", "value": "35.9 µM"}
{"SMILES": "CCc1nc2ncccn2c1C(=O)c1ccco1", "method": "MTT", "value": ">100 µM"}
{"SMILES": "Nc1ncnc2c1ncn2C[C@@H](CO)OCP(=O)(O)O", "value": "52 µM"}
{"SMILES": "Cc1cccc(N2C(=O)CSC23CCCCC3)n1", "value": "381 µM"}
{"SMILES": "CC(C)Nc1cccnc1N1CCN(C(=O)c2c[nH]c(-c3ccccc3NS(C)(=O)=O)c2)CC1", "value": "22 µM"}
{"SMILES": "Cc1c(C(C)c2c(Cl)cccc2Cl)nc(SCc2ccc([N+](=O)[O-])cc2)[nH]c1=O", "value": ">11.11 µM"}
{"SMILES": "CC(=O)c1ccc(Cn2cc(CSc3nc(Cc4c(Cl)cccc4Cl)c(C)c(=O)[nH]3)nn2)cc1", "method": "MTT", "value": "32.58 µM"}
{"SMILES": "Fc1ccc2nc3n(c2c1)C(c1c(F)cccc1F)SC3", "value": "162.6 µM"}
{"SMILES": "COCOc1cc(O)c(C(=O)/C=C/c2ccccc2)c(OCOC)c1", "value": "8 µg/mL"}
{"SMILES": "CC(C)Nc1cccnc1N1CCN(C(=O)c2c[nH]c(-c3cccc(N)c3)c2)CC1", "value": "21 µM"}
{"SMILES": "COc1ccc(N(C)C(=O)[C@@H]2Cc3cc(F)cc(c3)/C=C\\Cc3[nH]c4ccccc4c3CC(=O)N2)cc1", "method": "ATP / luminescence", "value": ">34.8 µM"}
{"SMILES": "O=C(c1ccccc1)c1ccc2c(c1)nc1n2C(c2c(Cl)cccc2Cl)SC1", "value": "28.3 µM"}
{"SMILES": "N#Cc1ccccc1Cn1cc(CSc2nc(Cc3cccc4ccccc34)c(I)c(=O)[nH]2)nn1", "method": "MTT", "value": "75.93 µM"}
{"SMILES": "CCc1c(Cc2c(Cl)cccc2Cl)nc(SCc2ccc(OC)cc2)[nH]c1=O", "value": ">57.47 µM"}
{"SMILES": "CC(=O)c1ccc(NC(=O)CSc2nc(CC34CC5CC(CC(C5)C3)C4)c(C)c(=O)[nH]2)c(Br)c1", "method": "MTT / absorbance", "value": "23.73 µM"}
{"SMILES": "COc1ccc(CSc2nc(Cc3c(F)cccc3F)c(C)c(=O)[nH]2)cc1OC", "value": "39.69 µM"}
{"SMILES": "Cc1cccc2nc3n(c12)C(c1c(F)cccc1F)SC3", "value": "21.5 µM"}
{"SMILES": "Cc1ccnc2c1NC(=O)c1cccnc1N2C1CC1", "value": ">50 µM"}
{"SMILES": "CCc1nc2ccccn2c1C(=O)c1ccc(O)cc1", "method": "MTT", "value": "80 µM"}
{"SMILES": "COc1ccc(COCCSc2nc(Cc3c(Cl)cccc3Cl)c(C)c(=O)[nH]2)cc1", "value": ">53.76 µM"}
{"SMILES": "Nc1nc2c(ncn2CC(CO)OCP(=O)(O)O)c(=O)[nH]1", "value": "25 µM"}
{"SMILES": "CC(C)c1s/c(=N\\S(=O)(=O)c2cccc([N+](=O)[O-])c2)n(C)c1C(N)=O", "method": "MTT", "value": ">25 µM"}
{"SMILES": "FC(F)(F)c1ccc2nc3n(c2c1)C(c1c(Cl)cccc1Cl)SC3", "value": "19.3 µM"}
{"SMILES": "CCc1c(Cc2c(Cl)cccc2Cl)nc(SCc2ccc(C#N)cc2)[nH]c1=O", "value": ">58.14 µM"}

A second listing of 7 rows from above:

Nc1ncnc2c1ncn2C[C@@H](CO)OCP(=O)(O)O ; value: 52 µM
CC(C)Nc1cccnc1N1CCN(C(=O)c2c[nH]c(-c3ccccc3NS(C)(=O)=O)c2)CC1 ; value: 22 µM
Nc1ncc2ncn(CCOCP(=O)(O)O)c2n1 ; value: >1250 µM
CC(C)Nc1cccnc1N1CCN(C(=O)c2c[nH]c(-c3cccc(N)c3)c2)CC1 ; value: 21 µM
CC(C)Nc1cccnc1N1CCN(C(=O)c2ccc(-c3ccccc3N)[nH]2)CC1 ; value: 72 µM
O=C1CSC(c2ccnc3ccccc23)N1c1ccccn1 ; value: 33.93 µM
C1CNCCNCC(C2CNCCNCCCNCCNC2)CNCCNC1 ; value: 58 µg/mL